Data on two compounds can be found in publication PMC8370201, “Amaryllidaceae Alkaloid Cherylline Inhibits the Replication of Dengue and Zika Viruses” (Antimicrobial Agents and Chemotherapy, 2021).

The subject of assay [1] is sg-DVs-R2A WT (viral RNA replication). To be noted: Huh7.5, 48 to 72 hpe; cherylline 50 μM, NITD008 5 μM.
Assay [2] relates to sg-DVs-R2A GND (DENV RNA translation). Conditions: Huh7.5, 4 hpe; cherylline 50 μM, NITD008 5 μM.
For assay [3], the system named is hygromycin-resistant replicon (DENV subgenomes). Put plainly: Escape mutant selection with hygromycin-resistant DENV replicon. Conditions: continuous treatment of 30 days.

For the compound `C#C[C@@]1(O)[C@H](O)[C@@H](CO)O[C@H]1n1ccc2c(N)ncnc21` [NITD008, reference compound], the “reduction of relative light units [RLU], sg-DVs-R2A WT” value in assay [1] is on record as 3 log10. Also, the “luminescence of sg-DVs-R2A GND (translation)” value in assay [2] is listed as “no effect on the luminescence”.

With `COc1cc2c(cc1O)CN(C)C[C@H]2c1ccc(O)cc1` [Cherylline, cherylline], the “reduction of relative light units [RLU], sg-DVs-R2A WT” value in assay [1] worked out at 3 log10. Moreover, the “luminescence of sg-DVs-R2A GND (translation)” value in assay [2] is recorded as “no effect on the luminescence”. Moreover, in assay [3], the “generation of resistant DENV subgenomes” value is recorded as “cells containing resistant DENV subgenomes were not generated”.
